Sequence variants of PSTVd loop 15 after infection

Values reported by Wu et al. 2024 (doi:10.1371/journal.ppat.1012142).

The pool varies loop 15 of the PSTVd intermediate strain in the pattern GGAAACCGNNNNNNC; wild type is GGAAACCGCUACUAC (upper and lower strand joined, each 5' to 3', the first 7 letters being the upper strand, closing pairs included).

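A pool of all variants was put on leaves of three Nicotiana benthamiana plants. Progeny were sequenced from the inoculated region (day 5), the margin of the inoculated leaf (day 10) and systemic leaves (day 12).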

Values are reads per thousand in the sample; higher means more abundant, 0 means not found.
Each value is the mean of three plants.
"Pool" is the share in the plasmid pool used as inoculum, on the same scale.
The inoculated region was read from the minus strand, the other sites from the plus strand.
IR is the inoculated region, LM the leaf margin, Sys the systemic leaves.

GGAAACCGUAGACAC (pool 0.176) read IR 0.0911; LM 0.0141; Sys 0.00537. For GGAAACCGCGAUACC (pool 0.320) the result was IR 0.0666; LM 0.00539; Sys 0. For GGAAACCGCUCGGCC (pool 0.192) the result was IR 0.0893; LM 0.0187; Sys 0. For GGAAACCGCUUGAAC (pool 0.272) the result was IR 0.0883; LM 0.0134; Sys 0.0130. GGAAACCGGAAAAAC (pool 0.176) gave IR 0.147; LM 0.0141; Sys 0.00537.

With GGAAACCGUGACCUC (pool 0.240) the assay gave IR 0.363; LM 0.125; Sys 0.0107. GGAAACCGCGACAUC (pool 0.192) read IR 0.207; LM 0.00539; Sys 0. GGAAACCGUUCACUC (pool 0.304) gave IR 0.316; LM 0.144; Sys 0.0107. GGAAACCGGUGGUCC (pool 0.240) read IR 0.0678; LM 0; Sys 0.0107. For GGAAACCGUUUACCC (pool 0.368) the result was IR 0.0750; LM 0.0254; Sys 0.00537.

With GGAAACCGCUGUGCC (pool 0.144) the assay gave IR 0.0985; LM 0; Sys 0. GGAAACCGUACGGUC (pool 0.256) read IR 0.285; LM 0.00742; Sys 0. GGAAACCGGGAUCAC (pool 0.272) gave IR 0.100; LM 0.0141; Sys 0. GGAAACCGGCUUCUC (pool 0.224) gave IR 0.0911; LM 0.0148; Sys 0. For GGAAACCGUUCGUCC (pool 0.192) the result was IR 0.299; LM 0.151; Sys 0.0487.

With GGAAACCGUAACAAC (pool 0.224) the assay gave IR 0.418; LM 0.0854; Sys 0.0512. For GGAAACCGAGGUUAC (pool 0.176) the result was IR 0.0686; LM 0; Sys 0. For GGAAACCGUGAAAAC (pool 0.208) the result was IR 0.309; LM 0.0819; Sys 0.0338. GGAAACCGCGAGGAC (pool 0.160) read IR 0.329; LM 0.117; Sys 0.0898. With GGAAACCGGGUCGAC (pool 0.192) the assay gave IR 0.0877; LM 0.00539; Sys 0.

For GGAAACCGCCACUUC (pool 0.224) the result was IR 0.298; LM 0.102; Sys 0.0582. GGAAACCGCCUCUUC (pool 0.144) gave IR 0.118; LM 0.00539; Sys 0. With GGAAACCGGGCUCUC (pool 0.160) the assay gave IR 0.0777; LM 0; Sys 0. For GGAAACCGUCCCGGC (pool 0.208) the result was IR 0.112; LM 0.00742; Sys 0. With GGAAACCGGGGAAGC (pool 0.192) the assay gave IR 0.137; LM 0.0134; Sys 0.

2 of these entries, quoted again:

* GGAAACCGGCUUCUC (pool 0.224) = IR 0.0911; LM 0.0148; Sys 0
* GGAAACCGGGUCGAC (pool 0.192) = IR 0.0877; LM 0.00539; Sys 0

The authors trace changes outside the varied positions to PCR and sequencing errors or to mutation in the plant; presence does not show that a variant is infectious alone.
For reference, wild type rose from 33.9 per thousand in the pool to 202, 200, 159 (inoculated region), 724, 746, 710 (leaf margin) and 856, 883, 880 (systemic leaves).
With 43,870-66,106 reads a sample, very low values are single reads.